In publication PMC2676509, “Intrinsic Thermal Sensing Controls Proteolysis of Yersinia Virulence Regulator RovA” (2009):

Target: RovA (Y. pseudotuberculosis)

RovA was tested, and the stoichiometry N was 2.
